Results of unrelated studies side by side (data: NIAID ChemDB).

Shared fields: whole-cell or culture tests; organism: Rhinovirus

Blank or dashed fields: not listed here. A number after MIC or MFC names an inhibition level or a share of isolates. Rows are shuffled and stem from different studies. ECn is the concentration giving n% inhibition of infection, replication or growth.

{"smiles": "Cc1c(-c2ccccc2)n(-c2ccc(F)cc2)c2ccc(C(C)C)cc2c1=O", "read-out": "EC50", "strain or isolate": "TYPE 2", "cell line": "HELA-OHIO", "read by": "cytopathic effect", "result": "0.038 µg/mL"}
{"smiles": "CSc1nsc(-c2ccc(O)cc2)c1C#N", "read-out": "EC50", "strain or isolate": "Serotype 86 (group A)", "cell line": "HELA-OHIO", "read by": "cytopathic effect", "result": "4.4 µM"}
{"smiles": "CCSc1ncnc2c1ncn2[C@@H]1OC2COP(=O)(O)OC2[C@H]1O", "read-out": "MIC", "strain or isolate": "TYPE 56", "result": "1 µg/mL"}
{"smiles": "COc1ccc(Cn2cnc3c(N(C)C)nc(C(F)(F)F)nc32)cc1C", "read-out": "EC50", "strain or isolate": "Serotype 8", "cell line": "M-HELA", "read by": "plaque count", "result": ">8 µM"}
{"smiles": "CCOc1cc(CCCOc2c(C)cc(-c3noc(C)n3)cc2C)on1", "read-out": "EC50", "strain or isolate": "Serotype 25", "cell line": "HeLa", "read by": "cytopathic effect", "result": "0.014 µg/mL"}
{"smiles": "Cc1cc(CCCOc2c(C)cc(-c3noc(C(F)(F)F)n3)cc2C)on1", "read-out": "EC50", "strain or isolate": "Isolate 18", "cell line": "OHIO HELA-I", "read by": "cytopathic effect / visual reading", "result": "0.94 µg/mL"}
{"smiles": "Cc1cc(CCCCCOc2cc(Cl)c(-c3nnco3)c(Cl)c2)on1", "read-out": "MIC80", "strain or isolate": "Serotype 1A", "result": "1.45 µg/mL"}
{"smiles": "Cc1nc(-c2cc(C)c(OCCCc3cc(C(F)(F)F)no3)c(C)c2)no1", "read-out": "EC50", "strain or isolate": "Serotype 15", "cell line": "HeLa", "read by": "cytopathic effect", "result": "0.232 µg/mL"}
{"smiles": "N#Cc1ccc(C2CCc3cc(C#N)ccc3O2)cc1", "read-out": "EC50", "strain or isolate": "Serotype 1B", "cell line": "HeLa", "read by": "cytopathic effect", "result": "0.32 µM"}
{"smiles": "C=CCc1nc(C)n2c(=O)[nH]c(=S)[nH]c12", "read-out": "EC50", "strain or isolate": "TYPE 1A", "cell line": "WI-38", "read by": "cytopathic effect", "result": ">100 µg/mL"}
{"smiles": "Cc1ccccc1Cn1cnc2c(N(C)C)nc(C(F)(F)F)nc21", "read-out": "EC50", "strain or isolate": "Serotype 1B", "cell line": "M-HELA", "read by": "plaque count", "result": "0.29 µM"}
{"smiles": "Cc1cc(CCCOc2c(C)cc(-n3nnc(C)n3)cc2C)on1", "read-out": "EC50", "strain or isolate": "Serotype 16", "read by": "plaque count", "result": "0.075 µg/mL"}
{"smiles": "C=CCc1nc(C)n2c(=O)[nH]c(NC(C)=O)nc12", "read-out": "EC50", "strain or isolate": "TYPE 9", "cell line": "WI-38", "read by": "cytopathic effect", "result": ">200 µg/mL"}
{"smiles": "CN(C)c1ccc(Cn2cnc3c(N(C)C)nc(C(F)(F)F)nc32)cc1", "read-out": "EC50", "strain or isolate": "Serotype 19", "cell line": "M-HELA", "read by": "plaque count", "result": ">8 µM"}
{"smiles": "N#Cc1ccc2c(c1)C=C(c1ccccc1)CO2", "read-out": "EC50", "strain or isolate": "Serotype 1B", "cell line": "HeLa", "read by": "plaque count", "result": "4.8 µM"}
{"smiles": "CC(=O)c1ccc(CCCOc2c(C)cc(-c3noc(C)n3)cc2C)o1", "read-out": "EC80", "strain or isolate": "15 serotype mixtures", "cell line": "HeLa", "read by": "cytopathic effect", "result": "0.4 µM"}
{"smiles": "CCCc1nc(-c2c(C)cc(OCCCc3ccc(CO)nn3)cc2C)no1", "read-out": "EC80", "strain or isolate": "serotypes 3 4 5 9 16 18 38 66 75 67", "cell line": "HeLa", "read by": "cytopathic effect", "result": "0.44 µg/mL"}
{"smiles": "CC(=O)c1ccoc1CCCOc1c(C)cc(-c2noc(C)n2)cc1C", "read-out": "EC50", "strain or isolate": "Serotype 14", "cell line": "HeLa", "read by": "cytopathic effect", "result": "1.9 µM"}
{"smiles": "Cc1cc(-c2noc(C(F)(F)F)n2)cc(C)c1OCCCc1cccnn1", "read-out": "EC50", "strain or isolate": "serotypes 3 4 5 9 16 18 38 66 75 67", "cell line": "HeLa", "read by": "cytopathic effect", "result": "0.071 µg/mL"}
{"smiles": "CCOC(=O)c1ccc(OCCC2CCN(c3ccc(C)nn3)CC2)cc1", "read-out": "EC50", "strain or isolate": "Serotype 16", "cell line": "WI-38", "read by": "cytopathic effect", "result": "<0.1 µg/mL"}
{"smiles": "Cc1cc(CCCCCOc2cc(Cl)c(-c3nnc(C)o3)c(Cl)c2)on1", "read-out": "MIC80", "strain or isolate": "Serotype 89", "result": "0.01 µg/mL"}
{"smiles": "OCCCNc1nnc2c3ccccc3n(CCc3ccccc3)c2n1", "read-out": "EC50", "strain or isolate": "33342", "cell line": "WI-38", "read by": "plaque count", "result": "4 µg/mL"}
{"smiles": "CSc1nsc(-c2ccc(OC(C)(C)C)cc2)c1C#N", "read-out": "EC50", "strain or isolate": "Serotype 70 (group A)", "cell line": "HELA-OHIO", "read by": "cytopathic effect", "result": ">40 µM"}
{"smiles": "Cc1cc(Cl)ccc1Cn1cnc2c(N(C)C)nc(C(F)(F)F)nc21", "read-out": "EC50", "strain or isolate": "Serotype 3", "cell line": "M-HELA", "read by": "plaque count", "result": ">8 µM"}
{"smiles": "CCOC(=O)c1ccc(OCCC2CCN(c3ccc(C)nn3)CC2)cc1", "read-out": "EC50", "strain or isolate": "Serotype 10", "result": "<0.06 µM"}
{"smiles": "CCOc1nc2ccc(OCCC3CCN(c4cc(C)c(C)nn4)CC3)cc2o1", "read-out": "EC50", "strain or isolate": "Serotype 2", "cell line": "MRC-5", "read by": "cytopathic effect", "result": "0.101 µg/mL"}
{"smiles": "Cc1ccc(Cn2cnc3c(N(C)c4ccccc4)nc(C(F)(F)F)nc32)cc1", "read-out": "EC50", "strain or isolate": "Serotype 2", "cell line": "M-HELA", "read by": "plaque count", "result": "2.7 µM"}
{"smiles": "CCn1c2c(c(=O)c3cc(C(C)C)ccc31)Cc1ccccc1-2", "read-out": "EC50", "strain or isolate": "32/363", "cell line": "HELA-OHIO", "read by": "cytopathic effect", "result": "0.61 µg/mL"}
{"smiles": "Cc1cc(CCCOc2c(Cl)cc(C3=NCCO3)cc2Cl)on1", "read-out": "EC50", "strain or isolate": "Serotype 3", "read by": "plaque count", "result": ">6.2 µg/mL"}
{"smiles": "Cn1c2ccccc2c2nnc(NCCCCCCO)nc21", "read-out": "EC50", "strain or isolate": "33342", "cell line": "WI-38", "read by": "plaque count", "result": "6 µg/mL"}
{"smiles": "Cc1c(-c2ccccc2)n(-c2cccc(F)c2)c2ccc(C(C)C)cc2c1=O", "read-out": "EC50", "strain or isolate": "TYPE 5", "cell line": "HELA-OHIO", "read by": "cytopathic effect", "result": ">1 µg/mL"}
{"smiles": "Cc1cc(-c2noc(C(F)(F)F)n2)cc(C)c1OCCCc1ccc(C(C)(F)F)nn1", "read-out": "EC80", "strain or isolate": "serotypes 3 4 5 9 16 18 38 66 75 67", "cell line": "HeLa", "read by": "cytopathic effect", "result": "0.17 µg/mL"}
{"smiles": "CCOC(=O)c1ccc(OCCC2CCN(c3ccc(C)nn3)CC2)cc1", "read-out": "EC50", "strain or isolate": "181-CV16 (ICAM-1 receptor group 12)", "cell line": "KB", "read by": "neutral red", "result": "0.054 µM"}
{"smiles": "Cn1c2ccccc2c2nnc(NCCC(C)(C)O)nc21", "read-out": "EC50", "strain or isolate": "1059", "cell line": "WI-38", "read by": "plaque count", "result": "40 µg/mL"}
{"smiles": "Fc1cccc(Cn2cnc3c(Nc4cccc(F)c4)nc(C(F)(F)F)nc32)c1", "read-out": "EC50", "strain or isolate": "Serotype 4", "cell line": "M-HELA", "read by": "plaque count", "result": "2.6 µM"}
{"smiles": "CCn1oc2cc(OCCC3CCN(c4ccc(C)nn4)CC3)ccc2c1=O", "read-out": "EC50", "strain or isolate": "Serotype 2", "cell line": "MRC-5", "read by": "cytopathic effect", "result": "0.246 µg/mL"}
{"smiles": "CN(C)c1nc(C(F)(F)F)nc2c1ncn2Cc1ccc([N+](=O)[O-])cc1", "read-out": "EC50", "strain or isolate": "Serotype 5", "cell line": "M-HELA", "read by": "plaque count", "result": ">10 µM"}
{"smiles": "Cc1cc(CCCCCOc2c(Cl)cc(C3=NCCO3)cc2Cl)on1", "read-out": "EC50", "strain or isolate": "TYPE 17", "cell line": "HeLa", "read by": "plaque count", "result": "0.18 µg/mL"}
{"smiles": "CCOC(=O)/C=C/[C@H](C[C@@H]1CCNC1=O)NC(=O)[C@H](Cc1ccc(F)cc1)NC(=O)[C@@H](NC(=O)c1cc(C)on1)C(C)C", "read-out": "EC50", "strain or isolate": "Serotype 2", "result": "<0.05 µM"}
{"smiles": "CCC(=O)OCCCNc1nnc2c3ccccc3n(C)c2n1", "read-out": "EC50", "strain or isolate": "1059", "cell line": "WI-38", "read by": "plaque count", "result": "220 µg/mL"}
{"smiles": "COc1ccc(-c2snc(SC)c2C#N)cc1", "read-out": "EC50", "strain or isolate": "Serotype 59 (group B)", "cell line": "HELA-OHIO", "read by": "cytopathic effect", "result": ">12 µM"}
{"smiles": "CCOc1nc2ccc(OCCC3CCN(c4ccc(C)nn4)CC3)cc2s1", "read-out": "EC50", "strain or isolate": "Serotype 14", "cell line": "MRC-5", "read by": "cytopathic effect", "result": "0.006 µg/mL"}
{"smiles": "CN(C)c1nc(C(F)(F)F)nc2c1ncn2Cc1ccc(Cl)c(NC=O)c1", "read-out": "EC50", "strain or isolate": "Serotype 21", "cell line": "M-HELA", "read by": "plaque count", "result": ">8 µM"}
{"smiles": "OCCCNc1nnc2c3ccccc3n(Cc3ccccc3)c2n1", "read-out": "EC50", "strain or isolate": "33342", "cell line": "WI-38", "read by": "plaque count", "result": "30 µg/mL"}
{"smiles": "CCCCc1nc2ccc(OCCC3CCN(c4ccc(C)nn4)CC3)cc2o1", "read-out": "EC50", "strain or isolate": "Serotype 14", "cell line": "MRC-5", "read by": "cytopathic effect", "result": "0.082 µg/mL"}
{"smiles": "C=CCc1nc(C)n2c(=O)[nH]cnc12", "read-out": "EC50", "strain or isolate": "TYPE 9", "cell line": "WI-38", "read by": "cytopathic effect", "result": "≥200 µg/mL"}
{"smiles": "N=C(N)c1ccc(C2=Cc3ccccc3OC2)cc1", "read-out": "EC50", "strain or isolate": "Serotype 1B", "cell line": "HeLa", "read by": "plaque count", "result": "22.4 µM"}
{"smiles": "N#Cc1ccc(Nc2nc(Cl)nc3c2ncn3Cc2ccccc2)cc1", "read-out": "EC50", "strain or isolate": "Serotype 1B", "read by": "plaque count", "result": "9.8 µM"}
{"smiles": "CSc1ccc(CCCOc2cc(C)c(-c3noc(C(F)F)n3)c(C)c2)nn1", "read-out": "EC80", "strain or isolate": "serotypes 3 4 5 9 16 18 38 66 75 67", "cell line": "HeLa", "read by": "cytopathic effect", "result": "0.15 µg/mL"}
{"smiles": "N=C(N)c1ccc(C2CCc3cc(C(=N)N)ccc3O2)cc1", "read-out": "EC50", "strain or isolate": "Serotype 1B", "cell line": "HeLa", "read by": "plaque count", "result": "22.4 µM"}
{"smiles": "Cc1nc(C(C)C)c2[nH]c(=S)[nH]c(=O)n12", "read-out": "EC50", "strain or isolate": "TYPE 1A", "cell line": "WI-38", "read by": "cytopathic effect", "result": ">200 µg/mL"}
{"smiles": "CCc1nc(-c2cc(C)c(OCCCc3cc(COC)no3)c(C)c2)no1", "read-out": "EC50", "strain or isolate": "Serotype 22", "cell line": "HeLa", "read by": "cytopathic effect", "result": "0.008 µg/mL"}
{"smiles": "Cc1ccc(N2CCC(CCOc3ccc4oc(C)nc4c3)CC2)nn1", "read-out": "EC50", "strain or isolate": "Serotype 2", "cell line": "MRC-5", "read by": "cytopathic effect", "result": ">0.5 µg/mL"}
{"smiles": "O=P1(O)OCC2O[C@@H](n3cnc4c(=S)nc[nH]c43)[C@H](O)C2O1", "read-out": "MIC", "strain or isolate": "TYPE 13", "result": "320 µg/mL"}
{"smiles": "Cn1c2ccccc2c2nnc(NCCCCO)nc21", "read-out": "EC50", "strain or isolate": "1059", "cell line": "WI-38", "read by": "plaque count", "result": "20 µg/mL"}

A second listing of 7 rows from above:

smiles,read-out,strain or isolate,cell line,read by,result
C=CCc1nc(C)n2c(=O)[nH]c(NC(C)=O)nc12,EC50,TYPE 9,WI-38,cytopathic effect,>200 µg/mL
N#Cc1ccc2c(c1)C=C(c1ccccc1)CO2,EC50,Serotype 1B,HeLa,plaque count,4.8 µM
CCSc1ncnc2c1ncn2[C@@H]1OC2COP(=O)(O)OC2[C@H]1O,MIC,TYPE 56,-,-,1 µg/mL
Cn1c2ccccc2c2nnc(NCCCCO)nc21,EC50,1059,WI-38,plaque count,20 µg/mL
CCOC(=O)c1ccc(OCCC2CCN(c3ccc(C)nn3)CC2)cc1,EC50,Serotype 10,-,-,<0.06 µM
CCOC(=O)/C=C/[C@H](C[C@@H]1CCNC1=O)NC(=O)[C@H](Cc1ccc(F)cc1)NC(=O)[C@@H](NC(=O)c1cc(C)on1)C(C)C,EC50,Serotype 2,-,-,<0.05 µM
N#Cc1ccc(Nc2nc(Cl)nc3c2ncn3Cc2ccccc2)cc1,EC50,Serotype 1B,-,plaque count,9.8 µM